Among the data in patent US20190358174A1, “ACTIVE AGENTS AGAINST PROTOZOA” (Christian-Albrechts-Universität zu Kiel, priority 2016, published 2019) are IC50 values, retold here.

Amino acid sequences for entries named in this document (tags omitted).
UniProt O77389, whole entry: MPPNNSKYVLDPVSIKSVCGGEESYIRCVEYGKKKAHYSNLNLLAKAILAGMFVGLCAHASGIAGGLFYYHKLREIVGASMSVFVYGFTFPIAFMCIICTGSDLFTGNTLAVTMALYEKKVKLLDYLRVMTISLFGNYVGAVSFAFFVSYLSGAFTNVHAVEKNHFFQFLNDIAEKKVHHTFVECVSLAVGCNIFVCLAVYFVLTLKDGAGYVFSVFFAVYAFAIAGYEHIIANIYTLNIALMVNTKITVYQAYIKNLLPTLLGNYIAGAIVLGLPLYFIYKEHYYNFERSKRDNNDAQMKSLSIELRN

The target in the assay is FNT wild-type (Plasmodium falciparum, UniProt O77389). Nature of the assay: yeast test system, 14C-L-lactate uptake, FNT wild-type expressed in Saccharomyces cerevisiae. Format: cell-based. To be noted: read-out: IC50 against FNT wild-type, 15 to 20 min preincubation, 1 mM lactate, pH 6.8. The source says: The FNT of the wild-type plasmodium (available under accession number PF3D7_0316600 in the data bank PlasmoDB) and of the resistant plasmodia (position of the mutation in the open reading frame: guanine 319 to adenine) were expressed in the yeast Saccharomyces cerevisiae W303-1A jen1Δ ady2Δ from plasmid pDR196 (PMA promoter). In the yeast, the endogenous genes for the monocarboxylate transporter Jenlp (sequence accession No. CAA82062 NCBI) and Ady2p (sequence accession No. KZV 12856) were deleted (obtained from M. Casal, Universidade do Minho, Portugal).
This yeast was grown in SD medium with addition of adenine, histidine, leucine, tryptophan and 2% (wt/v) glucose at 30° C. up to an OD600 of 0.8 to 1.0, harvested by centrifugation and washed once with water and centrifuged down again, and suspended in 50 mM HEPES/TRIS (pH 6.8) and adjusted to an OD600 of 50±10% and stored on ice. […] After 24 h of incubation at 18° C. in the scintillation cocktail, in which the cells were lysed, the amount of radioactively labelled lactate was measured by means of a scintillation counter. The total amount of lactate which was taken up by the yeast was calculated from the measured amount of radioactively labelled lactate. […]

Usually IC50 stands for the concentration at which inhibition is half-maximal. As for `O=C(/C=C(\O)C(F)(F)C(F)(F)F)c1cccc(Cl)c1O`, the IC50 was 250 nM.
